The chains are these.
B1: BD57-0200 (protein)
chain 1: QVHLVESGGGVVQPGRSLRLSCAASRFPFSDYGMHWVRQAPGKGLEWVAAISYDGTDKYYSGSVKGRFTISRDDSRNTLYLQMNSLRVEDTAVYYCARDSGRYGSGWSTTYYFGLDVWGQGTTVIVSS
chain 2: QSVLTQPPSVSAAPGQKVSISCSGSSSNIEHNHVSWYQQLPGTAPKLLIYDNNQRPSGIPDRFSGSKSGTSATLGITGLQTGDEAAYYCASWDSSLSLWVFGGGTKVTVL
B2: BD57-0221 (protein)
chain 1: QLQLQESGPGLVKPSETLSLTCTVSGGSITNSGYQWGWIRQPPGKGLEWIANIYSTGGTYYNLSLKSRAIISIDTSKNRFSLKLTSVTAADTAVYYCARPAGQQGDWFDPWGQGILVTVSS
chain 2: SYVLTQPPSVSVAPGKTARITCGGDNIGSKNVHWYQQRPGQAPILVIYYDSDRPSGIPERFSGSNSGNTATLTISRVEAGDEADYYCQVWDSNIDLHYVFGTGTKVTVL
B3: BD57-0229 (protein)
chain 1: QVQLQESGPGLVRPSETLSLTCIVSTGSISSSPYYWEWIRLPPGKGLEWIGGISYSGSAYYNPSLRSRVSISIDTSKNQLSLTLSSVTAADTALYYCARRVITGTPPFDYWGQGTLVTVSS
chain 2: SYVLAQPPSVSVPPGKTARITCGGDNIGSKSVHWYQQKPGQAPLLVMFYDSDRPSGIPERFSGSNSGNTATLTISRVEAGDEADYYCQLWDPHVIFGGGTKLTVL
B4: BD57-0196 (protein)
chain 1: QVTLKESGPVLVKPTETLTLTCTVSGFSLNNAKMGVSLIRQPPGKALEWLGHIFSNDEKSYSTSLKSRLTISKDTSKSQVVLTMTNMDPVDTATYYCARILESGSGSYYTGDNWFDPWGQGTLVTVSS
chain 2: SSELTQPPSVSVSPGQTARITCSGDAFPNQYAYWYQQKPGQAPVLVIYKDSERPSGIPERFSGSSSGTKVTLTISGVQAEDEADYYCQSADSSGVVFGGGTKLTVL
B5: BD57-0201 (protein)
chain 1: QVQLVQSGAEVKKPGASVKVSCKASGYTFTSYYIHWVRQAPGQGLEWMGIINPSAGSTTYAQKFQGRVTMTRDTSTSTVYMELSSLRSEDTAFYYCARDIVLVPAANAFDIWGQGTMVTVSS
chain 2: EIVLTQSPATLSLSPGERATLACRASQSVSSYLAWYQQKPGQAPRLLIYDASNRATGIPARFSGSGSGTDFTLTISSLEPEDFAVYYCQQRSNWPRTWTFGQGTKVEIK
B6: BD57-0217 (protein)
chain 1: EVQLVESGGGLVQPGGSLRLSCAASGFTFSTYDMHWVRQVTGKGLEWVSAIGTSGDRYYSDSVKGRFIISRDNAKNSLSLQMNNLRAGDTAVYYCARGDSNALNYYYMDVWGKGTTVTVSS
chain 2: DIQMTQSPSSLSASVGDRVTITCRASQTISNFLNWYQQKPGKAPSLLLYAASSLQSGVPSRFSGSGYGTEFTLTISNLQPEDFATYYCQQSYESPPWTFGQGTKVEIK
B7: BD57-0251 (protein)
chain 1: EVQLVQSGAEVKKSGESLKISCKVSGYSFSNYWIGWVRQRPGKGLEWMGIIYPGDSDTRYSPSFQGQVTISADKSINTAYLQWSSLKASDTAMYYCAKPFGYSGYDPDYSYDMDVWGQGTTVTVSS
chain 2: QSALTQPASVSGSPGQSITISCTGASTDVGSYNLVSWYQQHPGKAPKLIIYEGSKRPSGVSNRFSGSKSGNTASLTISGLQAEDEADYYCSSYPGSSISVFGGGTKLAVL
B8: BD57-0243 (protein)
chain 1: EVQLVESGGGLVQPGGSLRLACAASGLIVSRNYMTWVRQAPGKGLEWVSVIYPGGSTFYADSVKGRFTISRDDSNNTLYLQMNSLRAEDTAVYYCARDLSVVGGFDIWGQGTTVIVSS
chain 2: DIVLTQSPGTLSLSPGERATLSCRASQSVSSSYLAWYQQKPGQAPRLLIYGASIRATGIPDRFSGSGSGTDFTLTISRLEPEDFAVYFCQQYGSSPAYTFGQGTKLEIK
B9: BD57-0207 (protein)
chain 1: QVHLVQSGAEVKKTGSSVKVSCKASGGTFSSYVISWVRQAPGQGLEWMGGIIPVFGVPNYAQKFKGRVTITADESTGSAYMELSSLRSEDTAVYFCATGGVSGTKVYSMAVWGEGTAVTVSS
chain 2: QSALTQPPSASGSPGQSVTISCTGTSSDVGGFNYVSWYQQHPGKAPKLILYEVSQRPSGVPDRFSGSKSGNTASLTVSGLQADDEADYYCSSYGGSNNLIFGGGTKLTVL
B10: BD57-0247 (protein)
chain 1: EVQLVESGGDLVQPGGSLRLSCAASGFTFSSYDMHWVRQTTGKGLEWVSTIGTAGDTYYPDSVKGRFTISRENAKNSLYLQMNSLRAEDTAVYYCARGGYDNSGYYWFFDLWGRGTLVIVSS
chain 2: DIQMTQSPSSLSASVGDRVTITCRASQTISSYLNWYQQKAGKAPKLLIYAASSLQSGVPSRFSGSGSGTDFTLTISSLQPEDFATYYCQQSYSTFGTFGQGTRLEIK
B11: C1A-B12 (protein)
chain 1: EVQLVESGGGLIQPGGSLRLSCAASGFTVSSNYMSWVRQAPGKGLEWVSVIYSGGATYYADSVKGRFTISRDNSKNTLYLQMNSLRAEDTAVYYCARGDVSGYRYGLDYWGQGTLVTVS
chain 2: DIQLTQSPSSLSASVGDRVTITCRASQGISSYLAWYQQKPGKAPKLLIYAASTLQSGVPSRFSGSGSGTDFTLTISSLQPEDFATYYCQQLISYPGTFGQGTKLEIK
B12: BD57-0242 (protein)
chain 1: QVQLVQSGAEVKKPGSSVKVSCKASGDTSISYSIAWVRQAPGQGLQWMGRIIPIFGKANYAQKFQGRVTITADKSTSTAYMELSSLRSDDTAVYYCARGFGDYRWFDPWGQGTLVTVSS
chain 2: QSALTQPASVSGSPGQSITISCTGTNNDLDGYNFVSWYQQHPGKAPKVLIYDVSNRPSGVSNRFSGSKSGNTASLTISGLQAEDEADYYCGSYIHSTTPYLFGTGTTVTVL

Consider twelve molecules from the supplement of paper PMC9931576.

Human monoclonal antibodies against the spike receptor-binding domain (heavy:light variable regions). IC50 against pseudoviruses bearing the spike of naturally observed variants; lower = stronger; >10 µg/ml means not reached at the top dose. No active / inactive call. The stated detection limit is 0.0005 µg/ml; values near or below 0.001 µg/ml lie at the floor of the assay. Where only a bound is given, the exact number is not on record here.

One assay addresses SARS-CoV-2 Omicron BA.1 spike pseudovirus. Put plainly: pseudovirus neutralization IC50; higher = weaker neutralization. The protocol: (§1)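 Single-round VSV luciferase pseudovirus mixed with antibody dilutions for 1 h and put on Huh-7 cells for about a day; IC50 from the dose curve.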
On to B1, for which the “pseudovirus neutralization IC50” value came out at 0.556 µg/mL.

Take B2: the “pseudovirus neutralization IC50” value came out at 0.858 µg/mL.

For the molecule B3, the “pseudovirus neutralization IC50” value was 3.79 µg/mL.

With B4, the “pseudovirus neutralization IC50” value was more than 10 µg/mL.

In the case of B5, the “pseudovirus neutralization IC50” value is more than 10 µg/mL.

For the molecule B6, the “pseudovirus neutralization IC50” value was more than 10 µg/mL.

Turning to B7, the “pseudovirus neutralization IC50” value stood at 0.477 µg/mL.

B8: the “pseudovirus neutralization IC50” value turned out to be 0.0048 µg/mL.

Take B9: the “pseudovirus neutralization IC50” value is more than 10 µg/mL.

Consider B10, for which the “pseudovirus neutralization IC50” value is more than 10 µg/mL.

Turning to B11, the “pseudovirus neutralization IC50” value is more than 10 µg/mL.

Regarding B12, the “pseudovirus neutralization IC50” value is 0.00961 µg/mL.

The next assay addresses SARS-CoV-2 Omicron BA.2 spike pseudovirus. The description is as above. The method, then: as §1
In the case of B1, the “pseudovirus neutralization IC50” value was found to be 0.72 µg/mL.

Consider B2, for which the “pseudovirus neutralization IC50” value worked out at 1.42 µg/mL.

Take B3: the “pseudovirus neutralization IC50” value was determined as 7.6 µg/mL.

Turning to B4, the “pseudovirus neutralization IC50” value was more than 10 µg/mL.

As for B5, the “pseudovirus neutralization IC50” value was more than 10 µg/mL.

Take B6: the “pseudovirus neutralization IC50” value was more than 10 µg/mL.

With B7, the “pseudovirus neutralization IC50” value is 0.477 µg/mL.

In the case of B8, the “pseudovirus neutralization IC50” value is 0.00815 µg/mL.

Consider B9, for which the “pseudovirus neutralization IC50” value is more than 10 µg/mL.

As for B10, the “pseudovirus neutralization IC50” value was more than 10 µg/mL.

Take B11: the “pseudovirus neutralization IC50” value was more than 10 µg/mL.

As for B12, the “pseudovirus neutralization IC50” value amounted to 0.00934 µg/mL.

A further assay concerns the target SARS-CoV-2 Omicron BA.2.75 spike pseudovirus. The description is as above. The protocol: as §1
As for B1, the “pseudovirus neutralization IC50” value was 0.554 µg/mL.

Turning to B2, the “pseudovirus neutralization IC50” value is 1.3 µg/mL.

As for B3, the “pseudovirus neutralization IC50” value stood at 4.68 µg/mL.

As for B4, the “pseudovirus neutralization IC50” value was more than 10 µg/mL.

Consider B5, for which the “pseudovirus neutralization IC50” value is more than 10 µg/mL.

For B6, the “pseudovirus neutralization IC50” value is more than 10 µg/mL.

On to B7, for which the “pseudovirus neutralization IC50” value was 0.322 µg/mL.

Consider B8, for which the “pseudovirus neutralization IC50” value turned out to be 0.154 µg/mL.

Consider B9, for which the “pseudovirus neutralization IC50” value was 0.18 µg/mL.

As to B10, the “pseudovirus neutralization IC50” value was more than 10 µg/mL.

For the molecule B11, the “pseudovirus neutralization IC50” value is more than 10 µg/mL.

Regarding B12, the “pseudovirus neutralization IC50” value was 0.00869 µg/mL.

The next assay concerns the target SARS-CoV-2 Omicron BA.5 spike pseudovirus. Described as above. The method, then:
as §1
Regarding B1, the “pseudovirus neutralization IC50” value stood at 1.38 µg/mL.

In the case of B2, the “pseudovirus neutralization IC50” value came to 3.53 µg/mL.

Take B3: the “pseudovirus neutralization IC50” value is more than 10 µg/mL.

On to B4, for which the “pseudovirus neutralization IC50” value was more than 10 µg/mL.

Turning to B5, the “pseudovirus neutralization IC50” value is more than 10 µg/mL.

For B6, the “pseudovirus neutralization IC50” value is more than 10 µg/mL.

On to B7, for which the “pseudovirus neutralization IC50” value stood at 0.595 µg/mL.

As to B8, the “pseudovirus neutralization IC50” value was found to be 0.0125 µg/mL.

Regarding B9, the “pseudovirus neutralization IC50” value came to 2.87 µg/mL.

Turning to B10, the “pseudovirus neutralization IC50” value was more than 10 µg/mL.

B11: the “pseudovirus neutralization IC50” value was more than 10 µg/mL.

As for B12, the “pseudovirus neutralization IC50” value stood at 0.0361 µg/mL.

A further assay has as its target SARS-CoV-2 Omicron BQ.1.1 spike pseudovirus. The description is as above. The method, then:
as §1
In the case of B1, the “pseudovirus neutralization IC50” value was 2.95 µg/mL.

In the case of B2, the “pseudovirus neutralization IC50” value came out at 4.11 µg/mL.

On to B3, for which the “pseudovirus neutralization IC50” value is more than 10 µg/mL.

With B4, the “pseudovirus neutralization IC50” value is more than 10 µg/mL.

As to B5, the “pseudovirus neutralization IC50” value is more than 10 µg/mL.

In the case of B6, the “pseudovirus neutralization IC50” value was more than 10 µg/mL.

Regarding B7, the “pseudovirus neutralization IC50” value turned out to be 1.51 µg/mL.

As for B8, the “pseudovirus neutralization IC50” value is 1.18 µg/mL.

Regarding B9, the “pseudovirus neutralization IC50” value stood at 5.46 µg/mL.

On to B10, for which the “pseudovirus neutralization IC50” value was more than 10 µg/mL.

B11: the “pseudovirus neutralization IC50” value is more than 10 µg/mL.

Regarding B12, the “pseudovirus neutralization IC50” value was more than 10 µg/mL.

The next assay concerns the target SARS-CoV-2 Omicron XBB spike pseudovirus. The assay is described as above. The protocol:
as §1
Regarding B1, the “pseudovirus neutralization IC50” value is 2.28 µg/mL.

On to B2, for which the “pseudovirus neutralization IC50” value is 3.26 µg/mL.

Regarding B3, the “pseudovirus neutralization IC50” value is more than 10 µg/mL.

As for B4, the “pseudovirus neutralization IC50” value was more than 10 µg/mL.

Turning to B5, the “pseudovirus neutralization IC50” value is more than 10 µg/mL.

Regarding B6, the “pseudovirus neutralization IC50” value is more than 10 µg/mL.

For B7, the “pseudovirus neutralization IC50” value is 1.64 µg/mL.

As to B8, the “pseudovirus neutralization IC50” value came out at 1.32 µg/mL.

B9: the “pseudovirus neutralization IC50” value was more than 10 µg/mL.

For the molecule B10, the “pseudovirus neutralization IC50” value is more than 10 µg/mL.

With B11, the “pseudovirus neutralization IC50” value is more than 10 µg/mL.

Turning to B12, the “pseudovirus neutralization IC50” value amounted to 3.06 µg/mL.

In another assay the target is SARS-CoV-2 early D614G spike pseudovirus. The description is as above. The method, then: as §1
Consider B1, for which the “pseudovirus neutralization IC50” value came out at 1.46 µg/mL.

Consider B2, for which the “pseudovirus neutralization IC50” value was determined as 3.18 µg/mL.

For B3, the “pseudovirus neutralization IC50” value was determined as 3.62 µg/mL.

As for B4, the “pseudovirus neutralization IC50” value was more than 10 µg/mL.

For B5, the “pseudovirus neutralization IC50” value was more than 10 µg/mL.

B6: the “pseudovirus neutralization IC50” value is more than 10 µg/mL.

In the case of B7, the “pseudovirus neutralization IC50” value was found to be 1.33 µg/mL.

In the case of B8, the “pseudovirus neutralization IC50” value amounted to 0.00425 µg/mL.

With B9, the “pseudovirus neutralization IC50” value was determined as 0.000695 µg/mL.

B10: the “pseudovirus neutralization IC50” value is more than 10 µg/mL.

B11: the “pseudovirus neutralization IC50” value amounted to 0.0034 µg/mL.

On to B12, for which the “pseudovirus neutralization IC50” value stood at 0.00109 µg/mL.
